Legend:
[1] = Evaluated for growth inhibition of UV-4 cells under aerobic conditions; conditions: uv4
[2] = IC50 value determined against UV-4 cells with an 18 hr exposure under either aerobic or hypoxic conditions (Ratio = aerobic IC50 / hypoxic IC50)
[3] = Evaluated for growth inhibition of UV-4 cells under aerobic or hypoxic conditions; conditions: uv4
[4] = Ratio = (aerobic IC50 / hypoxic IC50) determined against UV-4 cells with an 18 hr exposure
[5] = Half-life was determined in culture medium at 37 degrees Celsius in alpha MEM
[6] = Evaluated for growth inhibition of AA8 cells under aerobic or hypoxic conditions (air/N2); conditions: cho-aa8

O=[N+]([O-])c1ccc(N(CCCl)CCCl)cc1
IC50 [1]: 22000 nM
IC50 [2]: 3200 nM
IC50 [3]: 3200 nM

CN(C)C(=O)c1cccc(N(CCCl)CCCl)c1
IC50 [4]: 980 nM

CS(=O)(=O)c1ccc(N(CCCl)CCCl)cc1
IC50 [4]: 880 nM

COc1ccc(N(CCCl)CCCl)cc1
T1/2 [5]: 0.27 h
IC50 [4]: 800 nM

Cl.Nc1ccc(N(CCCl)CCCl)cc1
T1/2 [5]: 0.121 h

Nc1ccccc1N(CCCl)CCCl
IC50 [6]: 530 nM
IC50 [1]: 480 nM

Cc1ccc(N(CCCl)CCCl)cc1
T1/2 [5]: 1.08 h
IC50 [4]: 790 nM

CN(C)C(=O)c1ccc(N(CCCl)CCCl)cc1
T1/2 [5]: 12.1 h
IC50 [4]: 950 nM

CS(=O)(=O)c1cccc(N(CCCl)CCCl)c1
IC50 [4]: 980 nM

O=[N+]([O-])c1ccccc1N(CCCl)CCCl
IC50 [6]: 1000 nM
IC50 [1]: 520 nM

O=[N+]([O-])c1cccc(N(CCCl)CCCl)c1
IC50 [1]: 13600 nM
IC50 [3]: 1500 nM

CSc1ccc(N(CCCl)CCCl)cc1
T1/2 [5]: 2.4 h
IC50 [4]: 670 nM

Cl.Nc1cccc(N(CCCl)CCCl)c1
T1/2 [5]: 1.25 h

ClCCN(CCCl)c1ccccc1
T1/2 [5]: 1.3 h
IC50 [2]: 1110 nM

O=Nc1ccc(N(CCCl)CCCl)cc1
IC50 [1]: 80 nM
IC50 [3]: 660 nM

COc1cccc(N(CCCl)CCCl)c1
T1/2 [5]: 2.9 h
IC50 [4]: 970 nM

Nc1cccc(N(CCCl)CCCl)c1
IC50 [1]: 160 nM
IC50 [3]: 1000 nM

— ChEMBL document CHEMBL1124922 (J Med Chem, 1990)
